{"sequences": {"note": "Protein sequences, listed by entry. Tags and fused reporters are not part of them. Residues count along the entry.", "UniProt Q5NHE7, 1-805": "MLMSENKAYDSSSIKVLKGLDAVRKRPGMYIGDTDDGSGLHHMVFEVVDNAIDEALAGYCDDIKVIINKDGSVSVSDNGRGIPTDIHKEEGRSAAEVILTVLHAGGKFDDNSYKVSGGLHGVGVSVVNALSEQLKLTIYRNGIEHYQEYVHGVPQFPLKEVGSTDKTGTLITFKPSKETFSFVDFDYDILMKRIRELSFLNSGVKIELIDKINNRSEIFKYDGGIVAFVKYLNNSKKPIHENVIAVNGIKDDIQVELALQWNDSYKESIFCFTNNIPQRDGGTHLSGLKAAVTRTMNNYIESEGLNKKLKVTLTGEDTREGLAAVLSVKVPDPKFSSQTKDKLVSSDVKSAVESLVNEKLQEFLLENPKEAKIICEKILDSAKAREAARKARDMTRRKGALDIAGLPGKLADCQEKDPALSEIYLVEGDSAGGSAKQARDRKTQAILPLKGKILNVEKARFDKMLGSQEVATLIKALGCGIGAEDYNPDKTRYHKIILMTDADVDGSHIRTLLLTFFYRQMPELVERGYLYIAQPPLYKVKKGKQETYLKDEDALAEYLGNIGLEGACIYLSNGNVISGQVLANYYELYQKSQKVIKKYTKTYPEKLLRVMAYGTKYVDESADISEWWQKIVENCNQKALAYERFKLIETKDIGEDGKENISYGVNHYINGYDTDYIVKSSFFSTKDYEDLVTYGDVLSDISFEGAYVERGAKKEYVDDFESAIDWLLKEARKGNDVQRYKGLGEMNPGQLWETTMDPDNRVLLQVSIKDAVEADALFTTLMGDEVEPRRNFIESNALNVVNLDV"}, "source": "paper PMC3176662", "about": "(Journal of biomolecular screening, 2011)", "molecular_target": "Francisella tularensis GyrB (ATP binding domain) (Francisella tularensis subsp. tularensis, UniProt Q5NHE7)", "experiment": "biochemical"}
{"compound": "CO[C@@H]1[C@@H](OC(N)=O)[C@@H](O)[C@H](Oc2ccc3c(O)c(NC(=O)c4ccc(O)c(CC=C(C)C)c4)c(=O)oc3c2C)OC1(C)C", "note": "[novobiocin]", "values": [{"measurement": "IC50", "result": 33, "unit": "nM"}]}
